Consider four molecules from patent publication US20230348569A1.

Where two headings read alike, the source gives them in different places.

Details in all cases: remark: other sources report otherwise
In experiment [1] the target is T1, SARS-COV-2-S RBD extracellular domain expressed with a C-terminal myc-myc-hexahistidine (SARS-COV-2 RBD-MMH) (SARS-CoV-2).
For experiment [2], the target named is T1, SARS-COV-2-S RBD extracellular domain …. This is another data set of the same source.
Experiment [3] addresses SARS-CoV-2 Spike Protein (RBD)([…]).mmH (SARS-CoV-2). Kind of experiment: Luminex bead assay, supernatant.
Experiment [4] shares this target. Kind of experiment: Luminex bead assay, supernatant. The source holds these as a separate data set.

B1: mAb10913 (antibody)
heavy: EVQLVESGGGLVQPGGSLRLSCAASGFTFRNYEMNWVRQAPGKGLEWVSYITSSGSTMYYADSVKGRFTISRDNAKNSLYLQMNSLRAEDTAVYYCARDGFYYYYAMDVWGQGTTVTVSSASTKGPSVFPLAPSSKSTSGGTAALGCLVKDYFPEPVTVSWNSGALTSGVHTFPAVLQSSGLYSLSSVVTVPSSSLGTQTYICNVNHKPSNTKVDKKV[human IgG1 Fc left out here]
light: QSVLTQPPSVSAAPGQKVTISCSGSSSNIGNNYVSWYQQLPGTAPKLLIYDNNKRPSGIPDRFSGSKSGTSATLGITGLQTGDEADYYCGTWDSSLSVGRVFGTGTKVTVLGQPKAAPSVTLFPPSSEELQANKATLVCLISDFYPGAVTVAWKADSSPVKAGVETTTPSKQSNNKYAASSYLSLTPEQWKSHRSYSCQVTHEGSTVEKTVAPTECS
What is called t½ is how long it takes for the measured level to halve. A higher t½ goes with slow decline. In experiment [1], B1 showed a t½ of 0.3 min.

B2: mAb10914 (antibody)
heavy: EVQLVESGGGLVQPGGSLRLSCAASGLIVSRNYMIWVRQAPGKGLEWVSVIYSGGSTFYADSVKGRFTISRHNSKNTLYLQMNSLRAEDTAVYYCARDLGTGGMDVWGQGTTVTVSSASTKGPSVFPLAPSSKSTSGGTAALGCLVKDYFPEPVTVSWNSGALTSGVHTFPAVLQSSGLYSLSSVVTVPSSSLGTQTYICNVNHKPSNTKVDKKV[human IgG1 Fc left out here]
light: DIQLTQSPSFLSASVGDRVTITCWASQGISSYLAWYQQKPGKAPKLLIYAASTLQSGVPSRFSGSGSGTEFTLTISSLQPEDFATYYCQQLNSYPLTFGGGTKVEIKRTVAAPSVFIFPPSDEQLKSGTASVVCLLNNFYPREAKVQWKVDNALQSGNSQESVTEQDSKDSTYSLSSTLTLSKADYEKHKVYACEVTHQGLSSPVTKSFNRGEC
With B2, the t½ in experiment [2] is 1 min; in experiment [1], 1.2 min.

B3: mAb10932 (antibody)
heavy: EVQLVESGGGLVQSGGSLRLSCAASGLTVSSNYMSWVRQAPGKGLEWVSVIYSGGSTFYSDSVKGRFTISRHNSKNTLYLQMNSLRAEDTAVYYCARARGDAFDIWGQGTMVTVSSASTKGPSVFPLAPSSKSTSGGTAALGCLVKDYFPEPVTVSWNSGALTSGVHTFPAVLQSSGLYSLSSVVTVPSSSLGTQTYICNVNHKPSNTKVDKKV[human IgG1 Fc left out here]
light: DIQMTQSPSSLSASVGDRVTITCQASQGISNYLNWYQQKPGKAPKLLISDASNLETGVPSRFSGSGSGTDFTFTISSLQPEDIATYYCQQYDNLRFFTFGPGTKVDIKRTVAAPSVFIFPPSDEQLKSGTASVVCLLNNFYPREAKVQWKVDNALQSGNSQESVTEQDSKDSTYSLSSTLTLSKADYEKHKVYACEVTHQGLSSPVTKSFNRGEC
As for B3, in experiment [1], the t½ was 5.5 min.

B4: mAb11002 (antibody)
heavy: EVQLVESGGGLVQPGGSLRLSCAASGFTVSSNYMSWVRQAPGKGLEWVSVIYSGGSTFYADSVKGRFTISRHNSKNTLYLQMNSLRAEDTAVYYCAREGYGMDVWGQGTTVTVSSASTKGPSVFPLAPSSKSTSGGTAALGCLVKDYFPEPVTVSWNSGALTSGVHTFPAVLQSSGLYSLSSVVTVPSSSLGTQTYICNVNHKPSNTKVDKKV[human IgG1 Fc left out here]
light: [about 100 residues left out here][about 120 residues left out here]
With B4, the values for the Binding signal (MFI) in experiment [3] and in experiment [4] were 11600 MFI and 10200 MFI, respectively.
